Measured values from several laboratories, pooled; numbers as filed in NIAID ChemDB.

Common to all: tests in culture; species: HIV-1; measure: fold resistance

Fold resistance: result on the changed form divided by that on wild type. Lines come from different laboratories, so protocols vary.

compound | strain | method | cell line | mutations | result
Cc1cn([C@H]2C[C@H](N=[N+]=[N-])[C@@H](CO)O2)c(=O)[nH]c1=O | NL4-3 | XTT | CEM + CEM-SS | RT-V108I | 8
Cn1c2ccccc2c2c1cc(C#N)c(=O)n2-c1ccc([N+](=O)[O-])cc1 | NNRTI-resistant | luciferase | HeLa | RT-K103N | 0.5
Cc1cc(S(N)(=O)=O)ccc1NC(=O)COc1ccc(Cl)cc1C(=O)c1cc(Cl)cc(C#N)c1 | NNRTI-resistant (RT V106A Y181C) | β-galactosidase | MAGI | RT-V106A Y181C | 1.7
CCOCn1c(Cc2ccccc2)c(C(C)C)c(=O)[nH]c1=O | D-3 (RT-V108I M184I) | cytopathic effect | CEM | RT-V108I M184I | 5
CC(C)CN(C[C@@H](O)[C@H](Cc1ccccc1)NC(=O)O[C@H]1CCOC1)S(=O)(=O)c1ccc(N)cc1 | NL4-3 | p24 / luminescence | MT-4 | L10I N37D G48V I54V L63P G73C I84V L90M | >27
Cc1cn([C@H]2C[C@H](N=[N+]=[N-])[C@@H](CO)O2)c(=O)[nH]c1=O | IIIB | p24 / ELISA | MT-2 | R41K | 1.6
CC(C)=CCOc1cc(NC(=S)c2ccoc2C)ccc1Cl | B-1 (RT L100V K103R/K Y188H) | cytopathic effect | CEM | RT-L100V K103R/K Y188H | 5
N#Cc1cc2[nH]c3ccccc3c2n(-c2ccc([N+](=O)[O-])cc2)c1=O | NNRTI-resistant | luciferase | HeLa | RT-V106I Y188L | 0.4
CC(=O)c1ccc(C)cc1NC(C(N)=O)c1c(Cl)cccc1Cl | Calanolide A-resistant (RT T139I) | XTT | CEM + CEM-SS | RT-T139I | 2.33
CCN[C@H]1CO[C@@H]2OCC[C@H](OC(=O)N[C@@H](Cc3cccc(OC)c3)[C@H](O)CN(CC(C)C)S(=O)(=O)c3ccc4nc(NC(C)C)sc4c3)[C@@H]21 | NL4-3 | p24 / luminescence | MT-4 | L10I L33I M36I M46I I54V K55R I62V L63P A71V G73S V82T L90M I93L | 2.2
Cc1ccnc2c1NC(=O)c1cccnc1N2C1CC1 | E BPTU-resistant (RT Y181C) | XTT | CEM + CEM-SS | RT-Y181C | 190
CN[C@H]1CO[C@@H]2OCC[C@H](OC(=O)N[C@@H](Cc3cccc(OC)c3)[C@H](O)CN(CC(C)C)S(=O)(=O)c3ccc4nc(NC(C)C)sc4c3)[C@@H]21 | NL4-3 | p24 / luminescence | MT-4 | L10I L33I M36I M46I I54V K55R I62V L63P A71V G73S V82T L90M I93L | 1.1
CC(C)=CCN1Cc2cc(Cl)cc3[nH]c(=S)n(c23)C[C@@H]1C | HXB2 | plaque count | HT4 + HT4 LacZ-1 | RT-M41L T215Y | 1
CC[C@H]1C(=O)Nc2ccc(F)cc2N1C(=O)OC(C)C | D-3 (RT-V108I M184I) | cytopathic effect | CEM | RT-V108I M184I | 2
C[C@H](Cn1cnc2c(N)ncnc21)OCP(=O)(O)O | Recombinant | luciferase | HeLa | RT-A62T V118I M184V | 1.1
Cc1ccc(S(=O)(=O)N(CC(C)C)C[C@@H](O)[C@H](Cc2ccccc2)NC(=O)O[C@H]2CO[C@H]3OCC[C@H]32)cc1 | IIIB | p24 / ELISA | MT-2 | K112M K113E V128I M200I H219P | 3.7
CC(C)CN(C[C@@H](O)[C@H](Cc1ccccc1)NC(=O)O[C@H]1CCO[C@H]2OCC[C@H]21)S(=O)(=O)c1ccc2nc(NC3CC3)sc2c1 | NL4-3 | p24 / luminescence | MT-4 | L10F V32I L33F M46L I54M A71V | 11
CCN(c1nc(F)ccc1NC(C)(C)C)C1CCN(C(=O)c2cc3cc(NC(=O)N4CCN(C)CC4)ccc3[nH]2)CC1 | IIIB | p24 / ELISA | MT-2 | K112M K113E V128I M200I H219P I401T R409K D437N L441P R41K | 3.4
CN[C@H]1CO[C@@H]2OCC[C@H](OC(=O)N[C@@H](Cc3ccccc3)[C@H](O)CN(CC(C)C)S(=O)(=O)c3ccc4nc(NC5CC5)sc4c3)[C@@H]21 | NL4-3 | p24 / luminescence | MT-4 | L10I L33I M36I M46I I54V K55R I62V L63P A71V G73S V82T L90M I93L | 9

The first 2 rows once more:

Cc1cn([C@H]2C[C@H](N=[N+]=[N-])[C@@H](CO)O2)c(=O)[nH]c1=O ; strain: NL4-3 ; method: XTT ; cell line: CEM + CEM-SS ; mutations: RT-V108I ; result: 8
Cn1c2ccccc2c2c1cc(C#N)c(=O)n2-c1ccc([N+](=O)[O-])cc1 ; strain: NNRTI-resistant ; method: luciferase ; cell line: HeLa ; mutations: RT-K103N ; result: 0.5